Measured values from several laboratories, pooled; numbers as filed in NIAID ChemDB.

Common to all: growth or infection tests; agent: Herpes simplex virus 1

ECn: concentration that inhibits the pathogen or its effect by n%. An empty or dashed field is not shown. Two numbers with a dash give a range or band. Rows are shuffled and stem from different studies.

compound	method	endpoint	cells	strain or isolate	value
O=c1[nH]c(=O)n([C@H]2C[C@H](O)[C@@H](COP3(=O)OCc4c(Cl)cccc4O3)O2)cc1/C=C/Br	plaque count	EC50	VERO	KUPKA (TK+)	0.23 µg/mL
C[C@@]12CC[C@]3(C1)C(C[C@@H](O)[C@H]1[C@](C)(C(=O)O)CCC[C@@]13C)C[C@H]2O	plaque count	EC50	HeLa	F	95.2 µM
O=Nc1c(O)n(-c2ccc(Br)cc2)c(=O)[nH]c1=O	cytopathic effect	EC50	VERO	Leningrad/248/88	>100 µg/mL
Nc1ncnc2c1ccn2[C@H]1C=C[C@@H](CO)O1	plaque count	EC50	HFF		>100 µM
CC(=O)OC[C@]1(C)CCC[C@@]2(C)[C@H]1[C@H](O)CC1C[C@@H](OC(C)=O)[C@]3(C)CC[C@]12C3	plaque count	EC50	HeLa	F	13.1 µM
Cc1cccc2c1OP(=O)(OC[C@H]1O[C@@H](n3cc(/C=C/Br)c(=O)[nH]c3=O)C[C@@H]1O)OC2	plaque count	EC50	VERO	KUPKA (TK+)	0.58 µg/mL
O=C[C@@H](O)[C@H](O)[C@H](O)[C@H](O)CO	cytopathic effect	EC50	HeLa	KOS	>200 µg/mL
CO[C@H]1C[C@H](O[C@H]2CC[C@]3(C=O)[C@H]4CC[C@]5(C)[C@@H](C6=CC(=O)OC6)CC[C@]5(O)[C@@H]4CC[C@]3(O)C2)O[C@H](C)[C@H]1O[C@@H]1O[C@H](CO[C@@H]2O[C@H](CO)[C@@H](O)[C@H](O)[C@H]2O)[C@@H](O)[C@H](O)[C@H]1O	plaque count	EC50	VERO	KOS	0.33 µM
O=c1[nH]c(=O)n([C@H]2C[C@H](O)[C@@H](COP3(=O)OCc4ccccc4O3)O2)cc1/C=C/Br	plaque count	EC50	VERO	B2006 (TK-)	>128 µg/mL
C[C@H]1O[C@@H](O[C@H]2CC[C@@]3(C)[C@H](CC[C@@H]4[C@@H]3C[C@@H](O)[C@]3(C)[C@@H](C5=CC(=O)OC5)CC[C@]43O)C2)C[C@H](O)[C@@H]1O[C@H]1C[C@H](O)[C@H](O[C@H]2C[C@H](O)[C@H](O[C@@H]3C[C@H](CO)[C@@H](O)[C@H](O)[C@H]3O)[C@@H](C)O2)[C@@H](C)O1	plaque count	EC50	VERO	KOS	0.94 µM
Nc1ncnc2c1c(Br)cn2[C@H]1C[C@H](O)[C@@H](CO)O1	plaque count	EC50	HFF		8.5 µM
CC(C)=CCN1CC[C@@]2(C)c3cc(O)ccc3C[C@@H]1[C@H]2C	cytopathic effect	EC50	HeLa	KOS	>200 µg/mL
Nc1nc2c(ncn2COCCOP(=O)(O)C(=O)O)c(=O)[nH]1	cytopathic effect	EC95	VERO	L2	71.4 µM
Cc1cccc2c1OP(=O)(OC[C@H]1O[C@@H](n3cc(/C=C/Br)c(=O)[nH]c3=O)C[C@@H]1OC(=O)[C@H]1CCCN1)OC2	plaque count	EC50	VERO	B2006 (TK-)	>128 µg/mL
COC(=O)[C@]1(C)CCC[C@@]2(C)[C@H]1[C@H](OC(=O)c1ccccc1)CC1C[C@H](O)[C@]3(C)CC[C@]12C3	plaque count	EC50	HeLa	F	5.1 µM
C[C@H]1O[C@@H](O[C@H]2CC[C@@]3(C)[C@H](CC[C@@H]4[C@@H]3CC[C@]3(C)[C@@H](C5=CC(=O)OC5)CC[C@]43O)C2)C[C@H](O)[C@@H]1O[C@@H]1O[C@H](CO)[C@@H](O)[C@H](O)[C@H]1O	plaque count	EC50	VERO	29R	0.06 µM
CC(=O)O[C@H]1C[C@H](n2cc(/C=C/Br)c(=O)[nH]c2=O)O[C@@H]1COP1(=O)OCc2ccccc2O1	plaque count	EC50	VERO	B2006 (TK-)	>128 µg/mL
C[C@]12CC[C@H](O)C[C@H]1CC[C@@H]1[C@@H]2C[C@@H](O)[C@]2(C)[C@@H](C3=CC(=O)OC3)CC[C@]12O	plaque count	EC50	VERO	29R	3.56 µM
Nc1nc2c(ncn2[C@@H]2C=C[C@H](CO)CC2)c(=O)[nH]1	plaque count	EC50			0.01–0.1 µM
COC(=O)[C@H](C)NP(=O)(OC[C@H]1C/C1=C/n1cnc2c(=O)[nH]c(N)nc21)Oc1ccccc1	plaque count	EC50	HFF		22.1 µM
Nc1nc2c(ncn2[C@H]2C=C[C@@H](CO)CC2)c(=O)[nH]1	plaque count	EC50			0.1–1 µM
COc1cc([C@@H]2c3cc4c(cc3[C@H](O)[C@H]3COC(=O)[C@H]23)OCO4)cc(OC)c1OC		EC50	MRC-5	ITOH	0.009 µg/mL
CCOc1ccc(-n2c(O)c(N=O)c(=O)[nH]c2=O)cc1	cytopathic effect	EC50	VERO	Leningrad/248/88	>100 µg/mL
N[C@@H](COP(=O)(O)OC[C@H](O)CO)C(=O)O	cytopathic effect	EC50	HeLa	KOS	>200 µg/mL
COc1cc(C2c3c(cc4c(c3OC)OCO4)C[C@H]3COC(=O)[C@H]23)cc(OC)c1OC		EC50	MRC-5	KOS	0.053 µg/mL
NC(=O)c1cn([C@H]2C=C[C@@H](CO)O2)c2ncnc(N)c12	plaque count	EC50	HFF		>100 µM
Nc1nc2c(ncn2COCCO)c(=O)[nH]1	plaque count	EC50	VERO	KOS	3.3 µM
CN[C@@H]1[C@H](O)[C@H](NC)[C@H]2O[C@@]3(O)C(=O)C[C@@H](C)O[C@H]3O[C@@H]2[C@H]1O	cytopathic effect	EC50	HeLa	KOS	>200 µg/mL
Cc1cccc2c1OP(=O)(OC[C@H]1O[C@@H](n3cc(/C=C/Br)c(=O)[nH]c3=O)C[C@@H]1OC(=O)CN)OC2	plaque count	EC50	VERO	B2006 (TK-)	>128 µg/mL
C[C@@H]1C/C=C2\SC[C@@H](NC(=O)c3coc(n3)C[C@H](O)C[C@H](O)/C=C\C=C/CNC2=O)C(=O)O1	cytopathic effect	EC50	HeLa	KOS	>200 µg/mL
CC(=O)O[C@@H]1CC2CC(=O)[C@]3(C)CC[C@@]2(C3)[C@@]2(C)CCC[C@@](C)(C(=O)O)[C@H]12	plaque count	EC50	HeLa	F	50.5 µM
COc1cc([C@@H]2c3cc(O)c(O)cc3C[C@H]3COC(=O)[C@@H]32)cc(OC)c1OC		EC50	MRC-5	A4-3	0.061 µg/mL
Nc1nc2c(ncn2C=C2CC2CO)c(=O)[nH]1		EC50		OST (TK-)	13 µg/mL
Nc1ccn([C@@H]2O[C@H](C(O[C@@H]3O[C@H](CO)[C@@H](O)[C@H](N)[C@H]3O)[C@@H](O)[C@@H](O)[C@@H](O)[C@@H](O)CO)[C@@H](N)[C@H](O)[C@H]2O)c(=O)n1	cytopathic effect	EC50	HeLa	KOS	>200 µg/mL
O=Nc1c(O)n(CCc2ccc(F)cc2)c(=O)[nH]c1=O	cytopathic effect	EC50	VERO	Leningrad/248/88	>100 µg/mL
Nc1ncnc2c1ncn2C[C@@H](CO)OCP(=O)(O)O	cytopathic effect	EC50	HEL	KOS	1.73 µg/mL
C[C@@]12CC[C@]3(C1)C(C[C@H]2O)C[C@@H](OC(=O)c1ccccc1)[C@H]1[C@](C)(C(=O)O)CCC[C@@]13C	plaque count	EC50	HeLa	F	13.4 µM
C[C@H]1O[C@@H](O[C@H]2CC[C@]3(C=O)[C@H]4CC[C@]5(C)[C@@H](C6=CC(=O)OC6)CC[C@]5(O)[C@@H]4CC[C@]3(O)C2)C[C@H](O)[C@@H]1O	plaque count	EC50	VERO	KOS	0.08 µM
O=c1[nH]c(=O)n([C@H]2C[C@H](O)[C@@H](CO)O2)cc1/C=C/Br	cytopathic effect	EC50	VERO	KOS	>100 µg/mL
CCCCC/C=C/C/C=C/CCCCCCCCO	cytopathic effect	EC50	HeLa	KOS	>200 µg/mL
COC(=O)[C@H](C)NP(=O)(OC[C@H]1C/C1=C/n1cnc2c(N)nc(N)nc21)Oc1ccccc1	plaque count	EC50	VERO		30 µM
C[C@H]1OC(O[C@H]2[C@@H](O)C[C@H](O[C@@]3(C)[C@@H](O)C[C@H](O[C@H]4CC[C@@]5(C)[C@H](CC[C@@H]6[C@@H]5C[C@@H](O)[C@]5(C)[C@@H](C7=CC(=O)OC7)CC[C@]65O)C4)O[C@@H]3C)O[C@@H]2C)C[C@H](O)[C@@H]1O	plaque count	EC50	VERO	KOS	0.66 µM
Cc1cc(C)c2c(c1)COP(=O)(OC[C@H]1O[C@@H](n3cc(/C=C/Br)c(=O)[nH]c3=O)C[C@@H]1O)O2	plaque count	EC50	VERO	B2006 (TK-)	>128 µg/mL
CC(=O)O[C@H]1CC2C[C@@H](OC(=O)c3ccccc3)[C@H]3[C@](C)(C(=O)O)CCC[C@]3(C)[C@]23CC[C@]1(C)C3	plaque count	EC50	HeLa	F	9.8 µM
CCC[C@@H]1C[C@@H](C(=O)N[C@@H]([C@H]2O[C@H](SC)[C@H](O)[C@@H](O)[C@H]2O)[C@@H](C)O)N(C)C1	cytopathic effect	EC50	HeLa	KOS	>100 µg/mL
COC(=O)[C@H](C)NP(=O)(OC[C@H]1C/C1=C/n1cnc2c(OC)nc(N)nc21)Oc1ccccc1	plaque count	EC50	VERO		0.6 µM
CCC(C)C(N)C(=O)O[C@H]1C[C@H](n2cc(/C=C/Br)c(=O)[nH]c2=O)O[C@@H]1COP1(=O)OCc2cccc(C)c2O1	plaque count	EC50	VERO	B2006 (TK-)	>128 µg/mL
Nc1nc2c(ncn2[C@@H]2C[C@H](CO)[C@H]2CO)c(=O)[nH]1	cytopathic effect	EC50	VERO	KOS	18 µg/mL
Nc1ccn(C[C@@H](CO)OCP(=O)(O)O)c(=O)n1	cytopathic effect	EC50	U87MG	KOS	1.34 µg/mL
COc1cc(O)c2c(c1)C(=O)c1cc3c(c(O)c1C2=O)C(O[C@@H]1O[C@@H](C)[C@H](OC)[C@@H](O)[C@H]1OC)C(OC)C(C)(O)C3=O	cytopathic effect	EC50	HeLa	KOS	>200 µg/mL
Nc1ncnc2c1ccn2COCCO	plaque count	EC50	HFF		>100 µM
COC(=O)[C@H](C)NP(=O)(OCC1C/C1=C/n1cnc2c(N)ncnc21)Oc1ccccc1	ELISA	EC50	BSC-1		25 µM
CC(=O)CCCC(C)(C)C(=O)CC/C(C)=C/CCC1(C)CCC([C@H](C)C(=O)O)OO1	plaque count	EC50	VERO		7.5 µg/mL
CO[C@H]1[C@@H](O)C[C@H](O[C@H]2[C@@H](O)C[C@H](O[C@H]3[C@@H](O)C[C@H](O[C@H]4CC[C@@]5(C)[C@H](CC[C@@H]6[C@@H]5CC[C@]5(C)[C@@H](C7=CC(=O)OC7)CC[C@]65O)C4)O[C@@H]3C)O[C@@H]2C)O[C@@H]1C	plaque count	EC50	VERO	KOS	0.14 µM
Cc1ccccc1-n1c(O)c(N=O)c(=O)[nH]c1=S	cytopathic effect	EC50	VERO	Leningrad/248/88	100 µg/mL
COC(=O)[C@]1(C)CCC[C@@]2(C)[C@H]1[C@H](OC(=O)c1ccccc1)CC1C[C@@H](O)[C@]3(C)CC[C@]12C3	plaque count	EC50	HeLa	F	7.7 µM

For reference, 3 entries again:

compound	method	endpoint	cells	strain or isolate	value
CC(=O)OC[C@]1(C)CCC[C@@]2(C)[C@H]1[C@H](O)CC1C[C@@H](OC(C)=O)[C@]3(C)CC[C@]12C3	plaque count	EC50	HeLa	F	13.1 µM
COc1cc(O)c2c(c1)C(=O)c1cc3c(c(O)c1C2=O)C(O[C@@H]1O[C@@H](C)[C@H](OC)[C@@H](O)[C@H]1OC)C(OC)C(C)(O)C3=O	cytopathic effect	EC50	HeLa	KOS	>200 µg/mL
Nc1ncnc2c1ccn2[C@H]1C=C[C@@H](CO)O1	plaque count	EC50	HFF		>100 µM